Results: the supplement of paper PMC9262897, “Low-cost anti-mycobacterial drug discovery using engineered E. coli” (Nature Communications, 2022)
± gives the standard deviation of the averaged measurements. Only a part is listed here, and it is no random draw.

test system: E. coli TESEC Mtb DapB; test: growth (OD600 after 10 h); higher = more growth (less inhibition); details: arabinose induction (level): High; compound 0.1 mM; raw OD600 reference: median of DMSO wells […], cell-free background 0.041
Experimental: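 TESEC E. coli strains in which the native enzyme is deleted and replaced by arabinose-inducible Mtb Asd, DapB, CysH or TrpD, each grown in its selective medium. Strains were screened against the Prestwick library at 0.1 mM and 1% DMSO in 384-well format at low and high arabinose induction. Growth is read as OD600 after 10 h in triplicate.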

Q: How did the growth turn out when `COc1cc(Br)c(C[N+]2(CCOCCC3CCC4CC3C4(C)C)CCOCC2)cc1OC` (configuration not stated) [Pinaverium bromide] was run?
A: 0.04833 ± 0.00029

same assay, conditions: arabinose induction (level): Low; compound 0.1 mM; raw OD600 reference: median of DMSO wells 0.227, cell-free background 0.041

Q: With `COc1cc(Br)c(C[N+]2(CCOCCC3CCC4CC3C4(C)C)CCOCC2)cc1OC` (configuration not stated) [Pinaverium bromide] as the compound, how does the growth read?
A: 0.0505 ± 0.0021
